These are literature values, as cited in publication PMC9448872, “Ligand-bound integrin αvβ6 internalisation and trafficking” (Frontiers in Cell and Developmental Biology, 2022).

By UniProt entry, the sequences of proteins in these tests, tags left out. Residues count along the entry.
UniProt P06756, 31-1048: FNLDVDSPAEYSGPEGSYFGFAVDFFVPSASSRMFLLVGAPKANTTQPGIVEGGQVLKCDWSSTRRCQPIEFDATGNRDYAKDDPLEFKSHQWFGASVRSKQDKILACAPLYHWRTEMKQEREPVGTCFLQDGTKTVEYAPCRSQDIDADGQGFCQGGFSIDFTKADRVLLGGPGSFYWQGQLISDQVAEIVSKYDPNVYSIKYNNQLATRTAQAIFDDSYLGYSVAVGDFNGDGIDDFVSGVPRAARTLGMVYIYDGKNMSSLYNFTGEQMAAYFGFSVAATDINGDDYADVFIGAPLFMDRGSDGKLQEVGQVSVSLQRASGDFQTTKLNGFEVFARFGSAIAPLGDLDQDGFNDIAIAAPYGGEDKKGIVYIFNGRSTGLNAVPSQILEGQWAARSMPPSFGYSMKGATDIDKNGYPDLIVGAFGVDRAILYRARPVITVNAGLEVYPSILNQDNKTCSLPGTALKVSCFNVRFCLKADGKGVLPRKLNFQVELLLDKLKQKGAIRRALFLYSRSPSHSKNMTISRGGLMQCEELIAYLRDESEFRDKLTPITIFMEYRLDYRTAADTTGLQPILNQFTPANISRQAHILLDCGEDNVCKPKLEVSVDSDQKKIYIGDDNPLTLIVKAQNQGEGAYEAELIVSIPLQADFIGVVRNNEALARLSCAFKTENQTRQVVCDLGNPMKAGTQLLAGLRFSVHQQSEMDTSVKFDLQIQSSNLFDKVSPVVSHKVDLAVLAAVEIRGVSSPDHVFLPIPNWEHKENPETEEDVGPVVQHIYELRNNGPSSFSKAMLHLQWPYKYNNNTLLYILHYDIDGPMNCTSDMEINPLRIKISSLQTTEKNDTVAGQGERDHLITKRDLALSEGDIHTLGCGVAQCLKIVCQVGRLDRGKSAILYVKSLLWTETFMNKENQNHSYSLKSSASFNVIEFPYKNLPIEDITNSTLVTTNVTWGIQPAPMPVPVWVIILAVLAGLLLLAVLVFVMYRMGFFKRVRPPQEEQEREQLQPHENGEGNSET

This series has as its target αvβ6-specific 20-mer peptide (A20FMDV2) (Foot-and-mouth disease virus). The conditions noted are these: cited from earlier work.

As for integrin αvβ6 (from UniProt P06756), the Kd (in general, the concentration at which binding is half-saturated) was 1.7 nM.
